Chains of the proteins cited; added tags and fusions are not shown. Lines headed by an entry give the natural chain unless they say otherwise; changes in a name come on top.
UniProt Q9H3N8: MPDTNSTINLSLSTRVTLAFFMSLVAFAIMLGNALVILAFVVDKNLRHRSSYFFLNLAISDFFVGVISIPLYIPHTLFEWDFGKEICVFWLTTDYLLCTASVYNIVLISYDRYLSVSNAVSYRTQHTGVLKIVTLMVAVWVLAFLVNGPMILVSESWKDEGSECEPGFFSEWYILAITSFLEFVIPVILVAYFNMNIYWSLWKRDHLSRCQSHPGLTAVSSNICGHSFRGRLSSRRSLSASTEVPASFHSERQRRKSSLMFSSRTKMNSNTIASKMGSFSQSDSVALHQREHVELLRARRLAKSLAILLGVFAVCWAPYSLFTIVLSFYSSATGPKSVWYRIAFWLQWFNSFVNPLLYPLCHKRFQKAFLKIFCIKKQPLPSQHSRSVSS

According to ChEMBL document CHEMBL3232922, “Discovery and SAR of 6-alkyl-2,4-diaminopyrimidines as histamine H₄ receptor antagonists” (J Med Chem, 2014):

What was measured:
Histamine H4 receptor [1] = biological target: T1, Histamine H4 receptor (Homo sapiens, UniProt Q9H3N8); assay: Displacement of [3H]histamine from human recombinant histamine H4 receptor expressed in SK-N-MC cells after 45 mins by competition binding analysis; assay type: cell-based
Histamine H4 receptor [2] = biological target: T1, Histamine H4 receptor; assay: Agonist activity at human H4 receptor
Histamine H4 receptor [3] = biological target: T1, Histamine H4 receptor; assay: Antagonist activity at human histamine H4 receptor expressed in SK-N-MC cells assessed as reduction of histamine-induced inhibition of cAMP-mediated beta-galactosidase reporter gene activity treated 10 mins prior to histamine challenge by microplate reader analysis; assay type: functional, cell-based; conditions: read-out: pA2 (converted)

Ki (Histamine H4 receptor [1]): 8 nM
EC50 (Histamine H4 receptor [2]): > 10000 nM
Kb (Histamine H4 receptor [3]): 2.51 nM
SMILES: CN[C@@H]1CCN(c2cc(C(C)(C)C)nc(N)n2)C1
